The source of these data is patent US9340590B2, “Potent and selective inhibitors of NaV1.3 and NaV1.7” (priority 2011, dated 2016).

Chains of the proteins cited; added tags and fusions are not shown.
UniProt Q9NY46, whole entry, looked up: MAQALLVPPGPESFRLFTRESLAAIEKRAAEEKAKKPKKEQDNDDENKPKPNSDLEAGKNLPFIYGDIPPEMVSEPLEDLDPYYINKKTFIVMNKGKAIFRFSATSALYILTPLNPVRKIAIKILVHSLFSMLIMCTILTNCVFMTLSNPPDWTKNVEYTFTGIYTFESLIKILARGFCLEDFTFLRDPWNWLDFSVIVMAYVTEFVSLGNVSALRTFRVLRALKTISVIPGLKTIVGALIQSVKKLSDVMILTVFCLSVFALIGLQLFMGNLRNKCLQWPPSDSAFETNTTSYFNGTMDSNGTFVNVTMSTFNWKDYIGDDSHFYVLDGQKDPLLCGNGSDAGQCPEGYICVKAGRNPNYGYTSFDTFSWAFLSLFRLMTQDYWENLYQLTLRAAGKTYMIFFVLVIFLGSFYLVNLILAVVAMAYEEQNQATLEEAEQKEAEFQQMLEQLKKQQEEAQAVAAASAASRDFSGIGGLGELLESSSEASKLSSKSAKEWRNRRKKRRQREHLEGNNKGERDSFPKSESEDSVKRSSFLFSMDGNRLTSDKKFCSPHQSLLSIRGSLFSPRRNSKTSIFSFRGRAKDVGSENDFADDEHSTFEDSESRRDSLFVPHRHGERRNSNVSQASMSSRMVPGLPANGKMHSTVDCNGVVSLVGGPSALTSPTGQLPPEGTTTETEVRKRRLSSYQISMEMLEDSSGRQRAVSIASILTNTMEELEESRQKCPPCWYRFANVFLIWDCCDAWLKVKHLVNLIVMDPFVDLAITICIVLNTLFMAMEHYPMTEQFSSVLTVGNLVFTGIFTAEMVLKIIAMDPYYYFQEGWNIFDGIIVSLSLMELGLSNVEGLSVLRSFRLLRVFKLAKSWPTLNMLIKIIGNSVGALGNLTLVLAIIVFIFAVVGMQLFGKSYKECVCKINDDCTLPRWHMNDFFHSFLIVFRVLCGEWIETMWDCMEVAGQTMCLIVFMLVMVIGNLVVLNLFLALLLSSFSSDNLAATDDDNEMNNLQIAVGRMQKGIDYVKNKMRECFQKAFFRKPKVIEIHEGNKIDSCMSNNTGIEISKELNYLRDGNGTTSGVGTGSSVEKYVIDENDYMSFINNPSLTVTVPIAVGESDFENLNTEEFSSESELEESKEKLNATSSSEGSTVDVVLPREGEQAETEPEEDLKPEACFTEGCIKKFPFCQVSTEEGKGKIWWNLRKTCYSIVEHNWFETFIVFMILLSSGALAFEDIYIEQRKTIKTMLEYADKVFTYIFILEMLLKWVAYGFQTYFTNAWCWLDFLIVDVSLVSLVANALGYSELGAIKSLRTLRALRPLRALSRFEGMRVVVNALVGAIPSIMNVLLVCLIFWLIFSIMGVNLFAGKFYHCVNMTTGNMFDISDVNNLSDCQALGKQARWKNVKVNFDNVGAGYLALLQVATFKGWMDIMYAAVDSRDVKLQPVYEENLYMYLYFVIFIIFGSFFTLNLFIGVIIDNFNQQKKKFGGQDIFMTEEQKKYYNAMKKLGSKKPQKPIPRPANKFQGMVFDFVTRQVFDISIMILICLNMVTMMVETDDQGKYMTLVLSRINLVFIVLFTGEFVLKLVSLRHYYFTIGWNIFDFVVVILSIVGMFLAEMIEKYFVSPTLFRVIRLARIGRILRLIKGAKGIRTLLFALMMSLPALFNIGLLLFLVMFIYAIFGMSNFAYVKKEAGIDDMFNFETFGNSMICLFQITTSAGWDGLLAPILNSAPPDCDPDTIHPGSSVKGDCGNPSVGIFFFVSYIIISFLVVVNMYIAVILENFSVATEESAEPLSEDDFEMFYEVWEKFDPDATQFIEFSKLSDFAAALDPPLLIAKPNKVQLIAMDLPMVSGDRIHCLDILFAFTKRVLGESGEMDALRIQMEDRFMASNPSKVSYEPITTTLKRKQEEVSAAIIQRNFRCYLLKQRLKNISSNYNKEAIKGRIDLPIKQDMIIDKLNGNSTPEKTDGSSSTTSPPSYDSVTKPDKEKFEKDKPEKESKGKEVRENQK
UniProt Q14524, whole entry, looked up: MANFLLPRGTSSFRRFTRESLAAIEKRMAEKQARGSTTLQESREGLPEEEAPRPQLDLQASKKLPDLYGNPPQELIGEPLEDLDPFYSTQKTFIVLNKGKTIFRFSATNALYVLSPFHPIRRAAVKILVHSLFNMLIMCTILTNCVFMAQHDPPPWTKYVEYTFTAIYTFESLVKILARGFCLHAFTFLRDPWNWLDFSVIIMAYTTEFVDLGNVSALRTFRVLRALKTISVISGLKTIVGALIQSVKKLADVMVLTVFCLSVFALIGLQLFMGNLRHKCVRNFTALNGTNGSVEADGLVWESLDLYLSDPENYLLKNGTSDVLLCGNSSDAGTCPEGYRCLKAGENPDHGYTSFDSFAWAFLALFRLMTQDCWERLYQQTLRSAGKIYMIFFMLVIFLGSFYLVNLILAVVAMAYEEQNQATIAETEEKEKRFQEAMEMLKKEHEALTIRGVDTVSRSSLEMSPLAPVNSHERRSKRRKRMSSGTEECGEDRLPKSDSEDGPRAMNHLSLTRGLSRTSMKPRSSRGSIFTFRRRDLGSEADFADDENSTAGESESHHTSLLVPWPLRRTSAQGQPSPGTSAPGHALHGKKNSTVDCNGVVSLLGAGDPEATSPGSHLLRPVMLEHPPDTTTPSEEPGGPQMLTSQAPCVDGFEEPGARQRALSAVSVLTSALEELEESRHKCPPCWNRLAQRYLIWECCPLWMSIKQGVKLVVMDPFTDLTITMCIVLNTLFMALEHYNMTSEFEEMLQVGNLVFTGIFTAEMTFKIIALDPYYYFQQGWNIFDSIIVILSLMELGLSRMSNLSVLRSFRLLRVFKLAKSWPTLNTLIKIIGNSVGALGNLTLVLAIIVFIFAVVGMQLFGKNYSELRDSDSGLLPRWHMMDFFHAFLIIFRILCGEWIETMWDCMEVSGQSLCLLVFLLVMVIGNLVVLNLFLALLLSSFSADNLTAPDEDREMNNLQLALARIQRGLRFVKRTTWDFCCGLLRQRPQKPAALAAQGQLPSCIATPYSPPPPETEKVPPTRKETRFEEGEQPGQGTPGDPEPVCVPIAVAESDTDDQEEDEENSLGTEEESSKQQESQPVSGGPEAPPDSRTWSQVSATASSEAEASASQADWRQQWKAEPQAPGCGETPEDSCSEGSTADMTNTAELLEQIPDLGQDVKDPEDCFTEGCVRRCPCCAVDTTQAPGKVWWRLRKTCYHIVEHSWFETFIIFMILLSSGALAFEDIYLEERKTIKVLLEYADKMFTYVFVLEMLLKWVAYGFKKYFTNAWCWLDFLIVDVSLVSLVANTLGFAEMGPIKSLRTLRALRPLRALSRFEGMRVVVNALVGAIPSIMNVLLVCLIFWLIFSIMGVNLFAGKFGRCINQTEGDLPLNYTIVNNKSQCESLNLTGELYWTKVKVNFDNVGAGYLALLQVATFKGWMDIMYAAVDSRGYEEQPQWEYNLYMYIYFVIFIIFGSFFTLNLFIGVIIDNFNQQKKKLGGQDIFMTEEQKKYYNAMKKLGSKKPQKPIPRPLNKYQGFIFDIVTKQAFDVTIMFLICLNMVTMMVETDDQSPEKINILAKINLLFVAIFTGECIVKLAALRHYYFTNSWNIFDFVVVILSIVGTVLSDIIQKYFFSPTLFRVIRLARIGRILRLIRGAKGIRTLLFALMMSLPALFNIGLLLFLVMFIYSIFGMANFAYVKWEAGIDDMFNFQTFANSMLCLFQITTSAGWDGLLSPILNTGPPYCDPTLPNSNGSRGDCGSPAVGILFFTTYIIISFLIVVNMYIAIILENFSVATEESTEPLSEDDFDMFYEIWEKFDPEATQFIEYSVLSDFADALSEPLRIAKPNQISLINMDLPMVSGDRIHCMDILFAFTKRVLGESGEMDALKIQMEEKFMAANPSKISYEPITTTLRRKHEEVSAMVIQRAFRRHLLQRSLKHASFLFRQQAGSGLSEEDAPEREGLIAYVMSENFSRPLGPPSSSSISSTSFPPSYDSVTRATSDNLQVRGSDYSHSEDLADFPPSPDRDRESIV
UniProt P35499, whole entry, looked up: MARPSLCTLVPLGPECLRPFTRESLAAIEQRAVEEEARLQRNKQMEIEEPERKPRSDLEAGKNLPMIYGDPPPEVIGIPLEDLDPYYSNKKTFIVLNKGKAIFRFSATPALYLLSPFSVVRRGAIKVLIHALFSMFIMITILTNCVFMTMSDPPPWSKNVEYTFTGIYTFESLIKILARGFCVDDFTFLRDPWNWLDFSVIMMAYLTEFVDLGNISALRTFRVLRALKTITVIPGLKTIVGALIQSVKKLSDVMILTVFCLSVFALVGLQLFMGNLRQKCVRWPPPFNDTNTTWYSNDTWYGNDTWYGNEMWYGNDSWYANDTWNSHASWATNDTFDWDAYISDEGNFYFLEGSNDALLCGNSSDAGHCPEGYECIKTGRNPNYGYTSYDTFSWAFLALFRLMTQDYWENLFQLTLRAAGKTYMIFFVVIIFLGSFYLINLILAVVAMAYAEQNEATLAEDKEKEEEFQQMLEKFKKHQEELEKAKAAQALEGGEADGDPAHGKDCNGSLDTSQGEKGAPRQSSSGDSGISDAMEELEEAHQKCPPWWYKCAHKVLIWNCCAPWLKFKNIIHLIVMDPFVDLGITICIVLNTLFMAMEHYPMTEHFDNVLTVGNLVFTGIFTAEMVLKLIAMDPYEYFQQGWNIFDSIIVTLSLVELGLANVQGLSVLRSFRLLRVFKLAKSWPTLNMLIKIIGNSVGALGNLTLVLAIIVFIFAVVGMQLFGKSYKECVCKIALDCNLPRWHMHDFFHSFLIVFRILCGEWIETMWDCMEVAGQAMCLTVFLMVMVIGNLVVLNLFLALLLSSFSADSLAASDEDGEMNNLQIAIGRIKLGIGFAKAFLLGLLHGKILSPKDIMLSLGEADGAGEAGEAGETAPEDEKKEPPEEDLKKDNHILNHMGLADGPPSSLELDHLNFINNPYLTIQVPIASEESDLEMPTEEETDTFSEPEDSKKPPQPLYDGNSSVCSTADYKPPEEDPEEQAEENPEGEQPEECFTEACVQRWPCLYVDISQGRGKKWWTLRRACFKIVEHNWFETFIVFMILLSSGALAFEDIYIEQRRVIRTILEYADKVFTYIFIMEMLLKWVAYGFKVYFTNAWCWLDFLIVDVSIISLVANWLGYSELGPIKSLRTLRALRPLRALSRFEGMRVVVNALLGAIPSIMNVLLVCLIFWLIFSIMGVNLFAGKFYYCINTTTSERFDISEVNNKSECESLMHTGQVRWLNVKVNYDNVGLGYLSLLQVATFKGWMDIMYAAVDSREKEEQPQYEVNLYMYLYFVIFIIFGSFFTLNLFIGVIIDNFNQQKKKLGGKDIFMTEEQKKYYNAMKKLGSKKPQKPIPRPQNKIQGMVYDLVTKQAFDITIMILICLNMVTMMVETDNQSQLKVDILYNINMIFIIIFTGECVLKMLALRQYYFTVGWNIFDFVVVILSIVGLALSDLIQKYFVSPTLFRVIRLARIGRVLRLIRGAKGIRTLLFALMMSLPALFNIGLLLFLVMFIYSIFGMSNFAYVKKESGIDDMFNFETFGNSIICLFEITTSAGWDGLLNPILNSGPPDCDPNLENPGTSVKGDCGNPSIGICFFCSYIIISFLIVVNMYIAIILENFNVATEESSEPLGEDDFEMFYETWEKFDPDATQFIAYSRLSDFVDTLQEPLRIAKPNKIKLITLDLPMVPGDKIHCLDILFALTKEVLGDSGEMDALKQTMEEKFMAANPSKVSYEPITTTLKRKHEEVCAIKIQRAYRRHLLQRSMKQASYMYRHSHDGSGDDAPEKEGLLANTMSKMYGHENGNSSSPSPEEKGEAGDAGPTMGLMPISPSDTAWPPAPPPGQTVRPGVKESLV

Experiment [1] addresses hNav1.3 (Homo sapiens, UniProt Q9NY46). The settings on record: ratio of Use IC50 values, Nav1.3 over Nav1.7.
Experiment [2] deals with hNav1.5 (Homo sapiens, UniProt Q14524). The settings on record: ratio of Use IC50 values.
The target in experiment [3] is hNav1.4 (Homo sapiens, UniProt P35499). Particulars: ratio of Use IC50 values.

Each structure is given as a SMILES string.

As for `N=C(N)NCCC[C@@H]1NC(=O)[C@H](CO)NC(=O)[C@H](Cc2c[nH]cn2)NC(=O)[C@H](CC(=O)O)NC(=O)[C@H](CCCNC(=N)N)NC(=O)[C@@H]2CSSC[C@H](N)C(=O)N[C@H]3CSSC[C@@H](C(N)=O)NC(=O)[C@H](CSSC[C@H](NC(=O)[C@H](CC(N)=O)NC3=O)C(=O)N[C@@H](CO)C(=O)N[C@@H](CO)C(=O)N[C@@H](CCCCN)C(=O)N[C@@H](Cc3c[nH]c4ccccc34)C(=O)N2)NC1=O`, the “Nav1.3/Nav1.7 Use” value in experiment [1] came to 4.0. Further, the “Nav1.5/Nav1.3 Use” value in experiment [2] (Nav1.5 over Nav1.3) amounted to 0. The “Nav1.5/Nav1.7 Use” value in experiment [2] (Nav1.5 over Nav1.7) is 0. For the same compound, the “Nav1.4/Nav1.3 Use” value in experiment [3] (Nav1.4 over Nav1.3) came to 0. The “Nav1.4/Nav1.7 Use” value in experiment [3] (Nav1.4 over Nav1.7) came out at 0.
